Measured values from several laboratories, pooled; numbers as filed in NIAID ChemDB.

Common to all: whole-cell or culture tests; organism: Hepatitis C virus; read by: luciferase / replicon; endpoint: EC50

Neighbouring rows are from separate reports. Blank or dashed fields: not listed here. ECn is the concentration giving n% inhibition of infection, replication or growth. Two numbers with a dash give a range or band.

smiles	conditions	cells	strain	value
CCn1c(=O)cc(Sc2ccc(Br)cc2)c2ccccc21		Huh-Luc-Neo		1–10 µM
COc1ccc(-c2nc(O[C@@H]3C[C@H]4C(=O)N[C@]5(C(=O)NS(=O)(=O)C6CC6)C[C@H]5/C=C\CCCCN(C)C(=O)N4C3)c3ccc(OC)c(C)c3n2)cc1	genotype 1b		1b	0.008 µM
Cc1cn(C2CP(=O)(OC(C)C)[C@@H](COCc3ccccc3)O2)c(=O)[nH]c1=O		Huh7	ZS11 (gt 1b)	>10 µM
CCCCCCCCCCCCCCOC(=O)NC(CCC(=O)O)(CCC(=O)O)CCC(=O)O		Huh7-Luc	1b	0.0081 µM
Cn1c(=O)cc(Sc2ccc(Br)cc2)c2cc(Cl)ccc21		Huh-Luc-Neo		1–10 µM
O=c1oc2ccccc2cc1CSc1nc2ccc(F)cc2[nH]1		Huh 5-2		11 µM
COc1nc(N)nc2c1ncn2[C@@H]1O[C@H](COP(=O)(N[C@H](C)C(=O)OCC(C)(C)C)Oc2cccc3ccccc23)[C@@H](O)[C@@]1(C)O		Huh7	1b replicon	0.01 µM
O=C(c1cc2c(C(F)(F)F)cc(-c3ccccc3)nc2s1)N1CCOCC1		Huh7		4.5 µM
C=CCc1ccccc1S(=O)(=O)NC(=O)[C@H](CCC)NC(=O)[C@@H](NC(=O)[C@@H](NC(=O)OC(C)(C)C)C(C)(C)C)c1ccc(Oc2cc(-c3ccccc3)nc3cc(OC)ccc23)c(C=C)c1			1b replicon	>10 µM
O=C(O)c1sc(-c2ccc(-c3cc4ncccn4n3)cc2)cc1N(C(=O)c1ccc(Cl)cc1Cl)C1CCOCC1			1a	0.01–0.05 µM
Cn1c(=O)c2c(ncn2C)n(C)c1=O		Huh7.5	JFH-1	726 µM
Nc1c(C(=O)N2CCOCC2)sc2nc3c(c(C(F)(F)F)c12)CCc1ccccc1-3		Huh7		3.9 µM
COc1ccc2c(c1)C[C@@H]1C[C@]1(C(=O)N1C[C@@H]3CC[C@@H](CN(CCCC4CCCCC4)C3)C1)Cn1c-2c(C2CCCCC2)c2ccc(C(=O)NS(=O)(=O)N(C)C)cc21		HCV replicon cells	H77	0.008 µM
CC(C)N(C(=O)c1ccc(Cl)cc1F)c1cc(-c2ccc(-c3cc4ncccn4n3)cc2)sc1C(=O)O			1a	0.01–0.05 µM
CNC(=O)N1C[C@H]2COC[C@@H](C1)CN(C(=O)[C@]13C[C@H]1Cc1cc(OC)ccc1-c1c(C4CCCCC4)c4ccc(C(=O)NS(=O)(=O)C(C)C)cc4n1C3)C2		HCV replicon cells	H77	0.2 µM
Cn1c(=O)cc(Sc2ccc(N)cc2)c2ccc(Cl)cc21		Huh-Luc-Neo		<1 µM
C#C[C@@]1(O)[C@H](O)[C@@H](CO)O[C@H]1n1ccc2c(N)ncnc21				0.1 µM
Cn1c(=O)cc(Sc2ccc(NC(=O)[C@H](Cc3ccccc3)NC(=O)OC(C)(C)C)cc2)c2ccccc21		Huh-Luc-Neo		1–10 µM
C=CCCCCS(=O)(=O)NC(=O)[C@H](CCC)NC(=O)[C@@H](NC(=O)[C@@H](NC(=O)OC(C)(C)C)C(C)(C)C)c1ccc(Oc2cc(-c3ccccc3)nc3cc(OC)ccc23)c(C=C)c1			1b replicon	>10 µM
N#Cc1c(C(=O)Nc2ccc(Cl)c(Cl)c2)nn(-c2ccccc2)c1-n1cccc1		Huh 5-2	Con1 (gt 1b)	108.1 µM
COC(=O)N[C@H](C(=O)N1CCC[C@H]1c1ncc(-c2ccc(-c3ccc(-c4cnc([C@@H]5CCCN5C(=O)[C@@H](NC(=O)OC)C(C)C)[nH]4)cc3)cc2)[nH]1)C(C)C		Huh7	GT2a	0.00015 µM
O=C(Nc1ccc(Cl)c(Cl)c1)c1cc(-n2cccc2)n(-c2ccc(Cl)cc2)n1		Huh 5-2	Con1 (gt 1b)	>159 µM
CN(C(=O)c1ccncc1)c1cc(C(F)(F)F)ccc1N1CCCCC1		Huh7/Rep-Feo1b	1b	>100 µM
O=C(O)c1sc(-c2ccc(-c3cc4ncccn4n3)cc2)cc1N(C(=O)c1ccc(Cl)cc1Cl)C1CCOC1			1a	0.01–0.05 µM
O=C(N[C@H]1CCCCC/C=C\[C@@H]2C[C@@]2(C(=O)NS(=O)(=O)C2CC2)NC(=O)C2C[C@@H](OC(=O)N3Cc4cccc(F)c4C3)CN2C1=O)c1ccc2c(c1)B(O)OC2	genotype 1b			3.2 nM
Cc1ccc(Sc2cc(=O)n(C)c3cc(C)c(C)cc23)cc1		Huh-Luc-Neo		<1 µM
Nc1c(C(=O)N2CCOCC2)sc2nc(-c3ccccc3)cc(C(F)(F)F)c12		Huh7		3.3 µM
Cn1c(=O)cc(Sc2cccc(F)c2)c2ccccc21		Huh-Luc-Neo		1–10 µM
Cc1cc(Br)ccc1C(=O)N(c1cc(-c2ccc(-c3cn4ccccc4n3)cc2)sc1C(=O)O)C(C)C			1b	0.1–0.5 µM
Cn1c(=O)cc(Sc2ccc(F)cc2)c2ccccc21		Huh-Luc-Neo		1–10 µM
O=C(Nc1ccc(Cl)cc1)c1cc(-n2cccc2)n(-c2ccccc2)n1		Huh 5-2	Con1 (gt 1b)	5.9 µM

4 of the rows above, restated:

smiles | conditions | cells | strain | value
O=C(Nc1ccc(Cl)c(Cl)c1)c1cc(-n2cccc2)n(-c2ccc(Cl)cc2)n1 |  | Huh 5-2 | Con1 (gt 1b) | >159 µM
CCCCCCCCCCCCCCOC(=O)NC(CCC(=O)O)(CCC(=O)O)CCC(=O)O |  | Huh7-Luc | 1b | 0.0081 µM
C=CCc1ccccc1S(=O)(=O)NC(=O)[C@H](CCC)NC(=O)[C@@H](NC(=O)[C@@H](NC(=O)OC(C)(C)C)C(C)(C)C)c1ccc(Oc2cc(-c3ccccc3)nc3cc(OC)ccc23)c(C=C)c1 |  |  | 1b replicon | >10 µM
Cn1c(=O)cc(Sc2ccc(NC(=O)[C@H](Cc3ccccc3)NC(=O)OC(C)(C)C)cc2)c2ccccc21 |  | Huh-Luc-Neo |  | 1–10 µM